Compound potency records, mixed from different reports. Data source: NIAID ChemDB in PubChem.

Shared fields: toxicity to cultured cells; cell line: MT-4; endpoint: CC50

CCn is the concentration with n% toxicity to the cells. Lines come from different laboratories, so protocols vary.

smiles	result
Cc1cn([C@@H]2O[C@@H]3CN[C@@]4(OCC5CCOC5)CS(=O)(=O)O[C@@]34[C@H]2O)c(=O)[nH]c1=O	>250 µM
CCn1nc(CC(=O)N/N=C/c2ccccc2)nc1C	125 µg/mL
Cc1ccc(-n2c(=O)c(C#N)c(N)c3ccc(Cl)cc32)cn1	>100 µM
COC(=O)Nc1nc2ccc(S(=O)(=O)N(CC(C)C)C[C@@H](O)[C@H](Cc3ccccc3)NC(=O)c3ccc(N)cc3C)cc2[nH]1	79.4 µM
C=C(C)[C@@H]1CC[C@]2(C(=O)NCCCCCCCC(=O)O)CC[C@]3(C)[C@H](CC[C@@H]4[C@@]5(C)CC[C@H](OC(=O)CC(C)(C)C(=O)O)C(C)(C)[C@@H]5CC[C@]43C)[C@@H]12	>10 µM
NOCc1c(F)cccc1Cl	62.3 µg/mL
COc1ccccc1N1CCN(c2c(F)cc3c(=O)c(C(=O)O)cn(CCOC(C)=O)c3c2OC(F)F)CC1	9.3 µg/mL
Cc1cn([C@@H]2O[C@H](CO[Si](C)(C)C(C)(C)C)[C@@H](O)[C@H]2O[Si](C)(C)C(C)(C)C)c(=O)n(Cc2nn[nH]n2)c1=O	2.1 µM
C=CCOCn1c(Cc2cccc(F)c2)c(CC)c(=O)[nH]c1=O	>100 µM
Cc1cn([C@@H]2O[C@@H]3CN[C@@]4(OCC(C)(C)C)CS(=O)(=O)O[C@@]34[C@H]2O[Si](C)(C)C(C)(C)C)c(=O)[nH]c1=O	12 µM
CC(C)CN(C[C@@H](O)[C@H](Cc1cccc(F)c1)NC(=O)O[C@H]1C2COC3OCC1C3C2)S(=O)(=O)c1ccc2nc(NC3CC3)sc2c1	38 µM
CC(C)CN(C[C@@H](O)[C@H](Cc1ccccc1)NC(=O)OC(C)(C)C)S(=O)(=O)c1ccc2ncn(CCc3ccccc3)c2c1	10.2 µM
C[C@]12CCC3C(CC=C4CC(O)CC[C@@]43C)C1CCC2C(=O)/C=C/c1ccc(/C=C/C(=O)C2CCC3CCC4C(CC=C5C[C@@H](O)CC[C@@]54C)[C@]32C)cc1	47.75 µM
C=CCOCn1c(Cc2cc(F)ccc2F)c(CC)c(=O)[nH]c1=O	>100 µM
Cc1cn([C@@H]2O[C@@H]3CN[C@@]4(OCc5ccccc5)CS(=O)(=O)O[C@@]34[C@H]2O[Si](C)(C)C(C)(C)C)c(=O)[nH]c1=O	6.4 µM
Cc1ccc(Nc2nc(N)nc(Cc3c(Cl)cccc3Cl)c2C)cc1	>100 µM
Cc1ccc(/C=C/C(=O)C2CCC3C4CC=C5C[C@@H](O)CC[C@]5(C)C4CC[C@]23C)cc1	55.38 µM
N#Cc1c(N)c2ccc(-c3ccccc3)cc2n(-c2ccc([N+](=O)[O-])cc2)c1=O	>100 µM
N[C@H]1C[C@H](n2cc(F)c(=O)[nH]c2=O)OC1[C@@H](O)CO	100 µM
Cc1ccnc2c1NC(=O)c1cccnc1N2C1CC1	>4 µM
C=C(C)[C@@H]1CC[C@]2(C(=O)NCCCCCCCNC(C)=O)CC[C@]3(C)[C@H](CC[C@@H]4[C@@]5(C)CC[C@H](O)C(C)(C)[C@@H]5CC[C@]43C)[C@@H]12	>10 µM
CC1Sc2c(C(=O)O)c(=O)c3cc(F)c(N4CCN(c5ncccn5)CC4)cc3n21	3.6 µg/mL
CC(=O)Nc1ccc(SSc2ccc(NC(C)=O)cc2C(N)=O)c(C(N)=O)c1	>120 µM
CNCCCOc1ccc2cc(C#N)c(=O)n(-c3ccc([N+](=O)[O-])cc3)c2c1	70.68 µM
CC(C)[C@H](NC(=O)OCc1cncs1)C(=O)N[C@@H](Cc1ccccc1)[C@H](O)CN1CCN(Cc2ccccc2)C[C@H]1C(=O)NC(C)(C)C	55.42 µM
CC(C)(C)[Si](C)(C)OC[C@H]1O[C@@H](n2cnc3c(=O)n(CC(=O)O)cnc32)[C@H](O)[C@@H]1O[Si](C)(C)C(C)(C)C	84 µM
CCOCn1c(Cc2cccc(C(F)(F)F)c2)c(CC)c(=O)[nH]c1=O	>100 µM
CCn1nc(Cc2n[nH]c(=S)o2)nc1C	69.38 µg/mL
CC(C)CN(C[C@@H](O)[C@H](Cc1cc(F)cc(F)c1)NC(=O)O[C@H]1C2COC3OCC1C3C2)S(=O)(=O)c1ccc2nc(NC3CC3)sc2c1	32 µM
C=C(C)[C@@H]1CC[C@]2(C(=O)NCCCCCCCC(=O)N[C@@H](CC(C)C)[C@H](O)CC(=O)O)CC[C@]3(C)[C@H](CC[C@@H]4[C@@]5(C)CC[C@H](O)C(C)(C)[C@@H]5CC[C@]43C)[C@@H]12	>10 µM
Cc1c(Sc2cc(Cl)cc(Cl)c2)n(COCCO)c(=O)[nH]c1=O	218 µM
CC(C)CN(C[C@@H](O)[C@H](Cc1ccccc1)NC(=O)O[C@H]1CCOC1)S(=O)(=O)c1ccc2nc(NC(=O)NCCN(C)C)[nH]c2c1	>10 µM
CCn1cc(C(=O)O)c(=O)c2cc(F)c(N3CCN(c4ncccn4)CC3)c(OC(F)F)c21	>40 µg/mL
Cc1c(Sc2ccccc2)n(COCCOC(=O)c2ccccc2)c(=O)[nH]c1=O	53 µM
CCNc1c(C#N)c(=O)n(-c2ccc([N+](=O)[O-])cc2)c2ccccc12	>100 µM
CC(C)CN(C[C@@H](O)[C@H](Cc1ccccc1)NC(=O)O[C@H]1CO[C@H]2OCC[C@H]21)S(=O)(=O)c1ccc2nc(NC(=O)OCCN(C)C)[nH]c2c1	>100 µM
NOCc1cc(Cl)ccc1Cl	47 µg/mL
C=C(C)[C@@H]1CC[C@]2(C(=O)NCCCCCNC(C)=O)CC[C@]3(C)[C@H](CC[C@@H]4[C@@]5(C)CC[C@H](OC(=O)CC(C)(C)C(=O)O)C(C)(C)[C@@H]5CC[C@]43C)[C@@H]12	9 µM
CCCCCO[C@]12CS(=O)(=O)O[C@@]13[C@@H](CN2)O[C@@H](n1cc(C)c(=O)[nH]c1=O)[C@@H]3O[Si](C)(C)C(C)(C)C	9 µM
CCn1nc(-c2ccc(Cn3ccc4ccccc43)cc2)nc1C	0.92 µg/mL
CCC(=O)OCCOCn1c(Sc2ccccc2)c(C)c(=O)[nH]c1=O	292 µM
COC(=O)Cn1c(=O)c(C)cn([C@@H]2O[C@H](CO[Si](C)(C)C(C)(C)C)[C@@H](O[Si](C)(C)C(C)(C)C)[C@H]2O)c1=O	4.3 µM
NOCc1ccccc1Cl	73.3 µg/mL
Nc1ncnc2c1ncn2[C@H]1CO[C@@H](CCP(=O)(O)O)O1	>100 µg/mL
NOCc1ccccc1	82.3 µg/mL
Cc1c(N)nc(Nc2ccc(C#N)cc2)nc1Cc1c(Cl)cccc1Cl	>100 µM
NNC(=O)Cc1nc2n(n1)CCCCC2	125 µg/mL
Cc1cn([C@H]2C=C[C@@H](CO)O2)c(=O)[nH]c1=O	>600 µM
S=c1[nH]nc(Cc2nc3n(n2)CCCCC3)o1	68.78 µg/mL
CNOC(=O)Cn1c(=O)c(C)cn([C@@H]2O[C@H](CO[Si](C)(C)C(C)(C)C)[C@@H](O)[C@H]2O[Si](C)(C)C(C)(C)C)c1=O	4.2 µM
C#CCOCn1c(Cc2c(F)c(F)cc(F)c2F)c(CC)c(=O)[nH]c1=O	5 µM
CCOCn1c(Cc2cc(C)cc(C)c2)c(CC)c(=O)[nH]c1=O	>500 µM
Cc1cc(OCC(=O)N[C@@H](Cc2ccccc2)[C@H](O)CN(CC(C)C)S(=O)(=O)c2ccc3nc[nH]c3c2)no1	>100 µM
N#Cc1cc2ccc(O[C@H]3CCNC3)cc2n(-c2ccc([N+](=O)[O-])cc2)c1=O	>32 µM
Cc1c(Sc2ccccc2)n(COCCOC(=O)C2CCCCC2)c(=O)[nH]c1=O	78 µM
N#Cc1cc2ccc(N[C@@H]3CCNC3)cc2n(-c2ccc([N+](=O)[O-])cc2)c1=O	>32 µM
CCO[C@]12CS(=O)(=O)O[C@@]13[C@@H](CN2)O[C@@H](n1ccc(=O)[nH]c1=O)[C@@H]3O[Si](C)(C)C(C)(C)C	119 µM
COc1ccccc1N1CCN(c2c(F)cc3c(=O)c(C(=O)O)cn(CCF)c3c2OC(F)F)CC1	5.53 µg/mL
C[C@]12CCC3C(CC=C4C[C@@H](O)CC[C@@]43C)C1CCC2C(=O)/C=C/c1ccsc1	>125 µM
Cc1cn([C@@H]2O[C@@H]3CN[C@@]4(OCCOc5ccccc5)CS(=O)(=O)O[C@@]34[C@H]2O)c(=O)[nH]c1=O	>250 µM
Nc1ncnc2c1ncn2[C@H]1C=C[C@@H](CO)O1	≥100 µM
N#Cc1cc2ccc(OCCO)cc2n(-c2ccc([N+](=O)[O-])cc2)c1=O	23 µM
CC(C)CN(C[C@@H](O)[C@H](Cc1ccccc1)NC(=O)OC1COC2OCCC12)S(=O)(=O)c1ccc2nc(N)[nH]c2c1	>100 µM
Cc1cn([C@@H]2O[C@@H]3CN[C@@]4(OCc5ccccc5)CS(=O)(=O)O[C@@]34[C@H]2O)c(=O)[nH]c1=O	>250 µM

For reference, 7 entries again:

{"smiles": "CC(=O)Nc1ccc(SSc2ccc(NC(C)=O)cc2C(N)=O)c(C(N)=O)c1", "result": ">120 µM"}
{"smiles": "CC(C)CN(C[C@@H](O)[C@H](Cc1ccccc1)NC(=O)OC1COC2OCCC12)S(=O)(=O)c1ccc2nc(N)[nH]c2c1", "result": ">100 µM"}
{"smiles": "NOCc1c(F)cccc1Cl", "result": "62.3 µg/mL"}
{"smiles": "CCn1nc(-c2ccc(Cn3ccc4ccccc43)cc2)nc1C", "result": "0.92 µg/mL"}
{"smiles": "C=C(C)[C@@H]1CC[C@]2(C(=O)NCCCCCCCNC(C)=O)CC[C@]3(C)[C@H](CC[C@@H]4[C@@]5(C)CC[C@H](O)C(C)(C)[C@@H]5CC[C@]43C)[C@@H]12", "result": ">10 µM"}
{"smiles": "C[C@]12CCC3C(CC=C4CC(O)CC[C@@]43C)C1CCC2C(=O)/C=C/c1ccc(/C=C/C(=O)C2CCC3CCC4C(CC=C5C[C@@H](O)CC[C@@]54C)[C@]32C)cc1", "result": "47.75 µM"}
{"smiles": "N[C@H]1C[C@H](n2cc(F)c(=O)[nH]c2=O)OC1[C@@H](O)CO", "result": "100 µM"}